Compound potency records, mixed from different reports. Data source: NIAID ChemDB in PubChem.

Common to all: target-level tests; agent: HIV-1; target: Protease

Lines come from different laboratories, so protocols vary. An empty or dashed field is not shown. Fold resistance: result on the changed form divided by that on wild type. ICn is the concentration giving n% inhibition. Inhibition is in % at the dose shown (toxicity tests: loss of growth or viability).

compound | read by | changes | tested at | read-out | result
CC(C)COC(=O)[C@H](Cc1ccccc1)NC(=O)[C@@H](O)[C@H](O)C(=O)N[C@@H](Cc1ccccc1)C(=O)OCC(C)C | absorbance | - | 10 µM | inhibition | <10%
CC(C)[C@H](NC(=O)COc1cccc2cnccc12)C(=O)N[C@@H](Cc1ccccc1)[C@H](O)C(=O)N1CCC[C@H]1C(=O)NC(C)(C)C | - | - | 0.05 µM | inhibition | 69%
O=C(CCC(=O)N[C@@H](Cc1ccccc1)C(=O)OCc1ccccc1)N[C@@H](Cc1ccccc1)C(=O)OCc1ccccc1 | absorbance | - | 10 µM | inhibition | <10%
CC(C)C[C@H](NC(=O)[C@@H](NC(=O)CCCCCCCCCCCCCCC(=O)N[C@@H](CC(N)=O)C(=O)N[C@@H](Cc1ccccc1)C(=O)O)C(C)O)C(=O)N[C@H](C(N)=O)C1CCCCC1 | - | PR-L10I K45R I54V L63P A71V V82T L90M I93L | - | IC50 | ~3.1 µM
CC(C)[C@H](NC(=O)[C@@H]1CCCN1C(=O)[C@@H](O)[C@H](Cc1ccccc1)NC(=O)[C@H](CC(N)=O)NC(=O)OCc1ccccc1)C(=O)NCC1CCCCC1 | - | - | 5 µM | inhibition | 96%
Nc1cccc(C(=O)N[C@H](Cc2ccccc2)C[C@H](O)[C@H](Cc2ccccc2)NC(=O)c2cccc(N)c2)c1 | substrate cleavage | PR-R8Q | - | fold resistance | 5.67
Cc1ccc(S(=O)(=O)N[C@@H](C)C(=O)N[C@H](C(=O)N[C@@H](Cc2ccccc2)[C@@H](O)[C@H](O)[C@H](Cc2ccccc2)NC(=O)[C@@H](NC(=O)[C@H](C)NS(=O)(=O)c2ccc(C)cc2)C(C)C)C(C)C)cc1 | - | PR-V82F | - | fold resistance | 1.2
CC[C@H](C)[C@H](NC(=O)[C@@H]1CCCN1C(=O)[C@@H](O)[C@H](Cc1ccccc1)NC(=O)[C@H](CO)NC(=O)Cc1ccccc1)C(=O)N[C@H](C(N)=O)C(C)C | - | - | 5 µM | inhibition | 19.1%
CN1CCN(C(=O)[C@@H]2O[C@@H]3CN(Cc4ccccc4)C(=O)[C@H]2O3)CC1 | FRET | - | 10 µM | inhibition | 82%
CC(O)[C@H](NC(=O)CCCCCCCCCCCCCCC(=O)N[C@@H](CC(N)=O)C(=O)N[C@@H](Cc1ccccc1)C(=O)O)C(=O)N[C@@H](Cc1ccccc1)C(=O)N[C@@H](Cc1ccccc1)C(N)=O | - | - | - | IC50 | 4.6 µM
CC(C)[C@H](NC(=O)[C@@H]1CCCN1C(=O)[C@@H](O)[C@H](Cc1ccccc1)NC(=O)OC(C)(C)C)C(=O)NCC1CCCCC1 | - | - | 1000 µM | inhibition | 76.6%
CC(O)[C@H](NC(=O)CCCCCCCCCCCCCCC(=O)N[C@@H](CC(N)=O)C(=O)N[C@@H](Cc1ccccc1)C(=O)O)C(=O)N[C@@H](Cc1ccc(O)cc1)C(=O)N[C@@H](Cc1ccccc1)C(N)=O | - | - | - | IC50 | 7.2 µM
COC(=O)[C@@H](NC(=O)CCC(=O)CCC(=O)N[C@H](C(=O)OC)C(C)C)C(C)C | absorbance | - | 10 µM | inhibition | <10%
CC(C)C[C@H](NC(=O)[C@@H](NC(=O)CCCCCCCCCCCCCCC(=O)N[C@@H](CC(N)=O)C(=O)N[C@@H](Cc1ccccc1)C(=O)O)C(C)O)C(=O)N1Cc2ccccc2CC1C(=O)O | - | - | - | IC50 | 32.3 µM
CCCCCOC(=O)[C@H](Cc1ccccc1)NC(=O)C(=O)N[C@@H](Cc1ccccc1)C(=O)OCCCCC | absorbance | - | 10 µM | inhibition | <10%
CC(O)[C@H](NC(=O)CCCCCCCCCCCCCCC(=O)N[C@@H](CC(N)=O)C(=O)N[C@@H](Cc1ccccc1)C(=O)O)C(=O)N[C@@H](CCc1ccccc1)C(=O)N[C@@H](Cc1ccccc1)C(N)=O | - | - | - | IC50 | 2.7 µM
COC(=O)[C@H](OC(=O)[C@H](Cc1ccccc1)NC(=O)C(=O)N[C@@H](Cc1ccccc1)C(=O)O[C@@H](C(=O)OC)C(C)C)C(C)C | absorbance | - | 10 µM | inhibition | <10%
CC(C)(CC(=O)O)CC(=O)O[C@H]1CC[C@]2(C)[C@H]3CC=C4[C@@H]5CC(C)(C)CC[C@]5(C(=O)OCc5ccccc5)CC[C@@]4(C)[C@]3(C)CC[C@H]2C1(C)C | FRET | - | - | IC50 | >1200 µg/mL
CC(C)[C@H](NC(=O)[C@H](C)NC(=O)OCc1ccccc1)C(=O)N[C@@H](Cc1ccccc1)[C@@H](O)[C@H](O)[C@H](Cc1ccccc1)NC(=O)[C@@H](NC(=O)[C@H](C)NC(=O)OCc1ccccc1)C(C)C | - | PR-V82F | - | fold resistance | 3.75
CC(C)COC(=O)C(Cc1ccc(Cl)cc1)NC(=O)C(=O)NC(Cc1ccc(Cl)cc1)C(=O)OCC(C)C | absorbance | - | 10 µM | inhibition | 20%
CCCCC(CC(=O)[C@H](CCCC)NC(=O)c1cnc2ccccc2n1)C(=O)N[C@@H](CCC(N)=O)C(=O)N[C@@H](CCCN=C(N)N)C(N)=O | fluorescence | - | - | IC10 | 26 µM
CCCCCCCCCCCC(=O)O[C@H]1CC[C@]2(C)[C@H]3CC=C4[C@@H]5CC(C)(C)CC[C@]5(C(=O)O)CC[C@@]4(C)[C@]3(C)CC[C@H]2C1(C)C | FRET | - | - | IC50 | >1200 µg/mL
CC(O)[C@H](NC(=O)CCCCCCCCCCCCCCC(=O)N[C@@H](CC(N)=O)C(=O)N[C@@H](Cc1ccccc1)C(=O)O)C(=O)N[C@@H](CC1CCCCC1)C(=O)N[C@@H](Cc1ccccc1)C(N)=O | - | - | - | IC50 | 1.55 µM
CC(C)(C)NC(=O)[C@H]1N(C(=O)[C@@H](O)[C@H](Cc2ccccc2)NC(=O)[C@H](CC(N)=O)NC(=O)COc2ccc(-c3ccccc3)cc2)CSC1(C)C | - | - | - | IC50 | <0.05 µM
CC(=O)O[C@@H]1C[C@]2(C)[C@H]3CC=C4[C@@H]5CC(C)(C)CC[C@]5(C(=O)OCc5ccccc5)CC[C@@]4(C)[C@]3(C)CC[C@H]2C(C)(C)[C@H]1OC(C)=O | FRET | - | - | IC50 | >1200 µg/mL
CSCC[C@H](NC(=O)[C@@H](NC(=O)CCCCCCCCCCCCCCC(=O)N[C@@H](CC(N)=O)C(=O)N[C@@H](Cc1ccccc1)C(=O)O)C(C)O)C(=O)N[C@@H](Cc1ccccc1)C(N)=O | - | - | - | IC50 | 4.96 µM
COC(=O)[C@H](CC(C)C)N1C[C@@H]2O[C@H](C1=O)[C@H](C(=O)N1CCN(C)CC1)O2 | FRET | - | 1 µM | inhibition | 0%
CSCC[C@H](NC(=O)CCCCCCCCCCCCCCC(=O)N[C@H](C(=O)N[C@@H](CC(C)C)C(=O)N[C@@H](Cc1ccccc1)C(N)=O)C(C)O)C(=O)N[C@@H](Cc1ccccc1)C(=O)O | - | - | - | IC50 | 2.2 µM
CON[C@H](C(=O)NC(=O)[C@H]1N(C(=O)[C@@H](O)[C@H](Cc2ccccc2)NC(=O)[C@@H](NC(=O)[C@H](Cc2ccccc2)NC(C)=O)C(C)C)CSC1(C)C)C(C)C | - | PR-V82A | - | fold resistance | 2
CCOC(=O)N1CCN(C(=O)[C@@H]2O[C@@H]3CN(Cc4ccccc4)C(=S)[C@H]2O3)CC1 | FRET | - | 10 µM | inhibition | 0%
CCCCCCCCCCCC(=O)O[C@H]1CC[C@]2(C)[C@H]3CC=C4[C@@H]5CC(C)(C)CC[C@]5(C(=O)OCc5ccccc5)CC[C@@]4(C)[C@]3(C)CC[C@H]2C1(C)C | FRET | - | - | IC50 | >1200 µg/mL

The last 2 rows once more:

compound,read by,changes,tested at,read-out,result
CCOC(=O)N1CCN(C(=O)[C@@H]2O[C@@H]3CN(Cc4ccccc4)C(=S)[C@H]2O3)CC1,FRET,-,10 µM,inhibition,0%
CCCCCCCCCCCC(=O)O[C@H]1CC[C@]2(C)[C@H]3CC=C4[C@@H]5CC(C)(C)CC[C@]5(C(=O)OCc5ccccc5)CC[C@@]4(C)[C@]3(C)CC[C@H]2C1(C)C,FRET,-,-,IC50,>1200 µg/mL